Compound potency records, mixed from different reports. Data source: NIAID ChemDB in PubChem.

All rows: target-level tests; species: HIV-1; target: Integrase

Two numbers with a dash give a range or band. Rows are shuffled and stem from different studies. Inhibition is in % at the dose shown (toxicity tests: loss of growth or viability). Fold resistance: result on the changed form divided by that on wild type. ICn: concentration for n% inhibition.

{"structure": "O=C(NC(CNC(=O)c1ccc(O)c(O)c1O)C(=O)O)c1cc(O)c(O)c(O)c1", "dose": "10 µM", "measure": "inhibition", "read by": "3′ processing", "value": "100%"}
{"structure": "CCNC(=O)c1cn2ccn(Cc3cccc(Cl)c3)c(=O)c2c(O)c1=O", "measure": "IC50", "read by": "ELISA", "value": "<0.01 µM"}
{"structure": "COC(=O)C(CNC(=O)/C=C/c1ccc(O)c(O)c1)NC(=O)/C=C/c1ccc(O)c(O)c1", "dose": "10 µM", "measure": "inhibition", "read by": "3′ processing", "value": "98%"}
{"structure": "CC(C)OCc1cc(=O)c(O)c2n1CCN(Cc1ccc(Cl)c(Cl)c1)C2=O", "measure": "IC50", "read by": "ELISA", "value": "0.01–0.1 µM"}
{"structure": "COc1ccc(C(=O)C2=NS(=O)(=O)c3cc(C)c(Cl)cc3S2)cc1", "mutations": "INTG-C65S", "measure": "fold resistance", "read by": "3′ processing", "value": ">3.3"}
{"structure": "COc1cccc(CNC(=O)/C=C(\\O)C(=O)O)c1", "dose": "70 µM", "measure": "inhibition", "read by": "strand transfer", "value": "65%"}
{"structure": "CNC(=O)c1cn2c(c(O)c1=O)C(=O)N(Cc1ccc(F)c(Cl)c1)CC2", "measure": "IC50", "read by": "ELISA", "value": "0.01–0.1 µM"}
{"structure": "COC(=O)/C(=C/c1cc(Br)ccc1OCc1ccccc1)CNCc1cn([C@H]2C[C@H](n3cc(C)c(=O)[nH]c3=O)O[C@@H]2CO)nn1", "dose": "10 µM", "measure": "inhibition", "value": "29.8%"}
{"structure": "COC(=O)C(CCCNC(=O)/C=C/c1cc(O)c(O)c(O)c1)NC(=O)/C=C/c1cc(O)c(O)c(O)c1", "dose": "10 µM", "measure": "inhibition", "read by": "3′ processing", "value": "96%"}
{"structure": "COc1ccc(CNC(=O)/C=C(\\O)C(=O)O)c(OC)c1", "measure": "IC50", "read by": "strand transfer", "value": "<70 µM"}
{"structure": "Cc1cc(Cl)cc2c1S(=O)(=O)N=C(C(=O)c1ccc3ccccc3c1)S2", "mutations": "INTG-C65S", "measure": "fold resistance", "read by": "strand transfer", "value": "2.85"}
{"structure": "COC(=O)C(CCNC(=O)/C=C/c1ccc(O)c(O)c1)NC(=O)/C=C/c1ccc(O)c(O)c1", "dose": "10 µM", "measure": "inhibition", "read by": "3′ processing", "value": "52%"}
{"structure": "Cc1cc2c(cc1Cl)SC(C(=O)c1cccc([N+](=O)[O-])c1)=NS2(=O)=O", "mutations": "INTG-C65S", "measure": "fold resistance", "read by": "3′ processing", "value": "1.67"}
{"structure": "O=c1c(-c2ccc(Cl)cc2)cn2ccn(Cc3cccc(Cl)c3)c(=O)c2c1O", "measure": "IC50", "read by": "ELISA", "value": "0.01–0.1 µM"}
{"structure": "COC(=O)c1cc(O)c(O)c(O)c1", "dose": "1000 µM", "measure": "inhibition", "read by": "3′ processing", "value": "73%"}
{"structure": "CN(Cc1ccccc1)C(=O)c1cn2ccn(Cc3cccc(Cl)c3)c(=O)c2c(O)c1=O", "measure": "IC50", "read by": "ELISA", "value": "<0.01 µM"}
{"structure": "O=C(/C=C/c1ccc(O)c(O)c1)NCCCC[C@H](NC(=O)/C=C/c1ccc(O)c(O)c1)C(=O)O", "dose": "10 µM", "measure": "inhibition", "read by": "3′ processing", "value": "78%"}
{"structure": "O=C(/C=C/c1ccc(O)c(O)c1)Oc1ccc2c(N=C=S)cccc2c1", "mutations": "C56S", "measure": "fold resistance", "read by": "3′ processing", "value": "6.67"}
{"structure": "CSCC1NCCn2c1nc(C(=O)NCc1ccc(F)cc1)c(O)c2=O", "measure": "IC50", "read by": "ELISA", "value": "<10 µM"}
{"structure": "CC(C)c1cn(Cc2ccc(Cl)c(Cl)c2)c(=O)c2c(O)c(=O)ccn12", "measure": "IC50", "read by": "ELISA", "value": "<0.01 µM"}
{"structure": "O=C(/C=C/c1ccc(O)c(O)c1)OCCc1ccc(N=C=S)cc1", "mutations": "C56S", "measure": "fold resistance", "read by": "3′ processing", "value": "4.5"}
{"structure": "CC(=O)N(Cc1ccccc1)C1CN(C)CCn2c1nc(C(=O)NCc1ccc(F)cc1)c(O)c2=O", "measure": "IC50", "read by": "ELISA", "value": "<10 µM"}
{"structure": "O=C(Nc1cn2ccn(Cc3cccc(Cl)c3)c(=O)c2c(O)c1=O)c1ccccc1", "measure": "IC50", "read by": "ELISA", "value": "<0.01 µM"}
{"structure": "Cc1cc(Cl)cc2c1S(=O)(=O)N=C(C(=O)c1ccc(Cl)cc1)S2", "mutations": "INTG-C65S", "measure": "fold resistance", "read by": "3′ processing", "value": "2.22"}
{"structure": "O=C(/C=C/c1ccc(O)c(O)c1)OCCc1ccccc1", "mutations": "C56S", "measure": "fold resistance", "read by": "3′ processing", "value": "7"}
{"structure": "Cc1cc2c(cc1Cl)SC(C(=O)c1ccc(Cl)cc1)=NS2(=O)=O", "mutations": "INTG-C65S", "measure": "fold resistance", "read by": "3′ processing", "value": "1.1"}
{"structure": "O=C(/C=C/c1ccc(O)c(O)c1)Oc1ccc2cccc(N=C=S)c2c1", "mutations": "C56S", "measure": "fold resistance", "read by": "3′ processing", "value": "11"}
{"structure": "CN(C)C(=O)C(=O)N(C)C1CN(CC2CC2)CCn2c1nc(C(=O)NCc1ccc(F)cc1)c(O)c2=O", "measure": "IC50", "read by": "ELISA", "value": "<10 µM"}
{"structure": "CN(Cc1ccccc1Cl)C(=O)/C=C(\\O)C(=O)O", "measure": "IC50", "read by": "strand transfer", "value": "<70 µM"}

The last 3 rows once more:

O=C(/C=C/c1ccc(O)c(O)c1)Oc1ccc2cccc(N=C=S)c2c1 ; mutations: C56S ; measure: fold resistance ; read by: 3′ processing ; value: 11
CN(C)C(=O)C(=O)N(C)C1CN(CC2CC2)CCn2c1nc(C(=O)NCc1ccc(F)cc1)c(O)c2=O ; measure: IC50 ; read by: ELISA ; value: <10 µM
CN(Cc1ccccc1Cl)C(=O)/C=C(\O)C(=O)O ; measure: IC50 ; read by: strand transfer ; value: <70 µM